Compound potency records, mixed from different reports. Data source: NIAID ChemDB in PubChem.

Shared fields: tests in culture

ECn: concentration that inhibits the pathogen or its effect by n%.

CCCCCCCCOC(=O)[C@]1(O)C[C@@H](O)[C@@H](O)[C@H](OC(=O)/C=C/c2ccc(O)c(O)c2)C1 ; endpoint: MIC80 ; organism: Aspergillus parasiticus ; strain or isolate: UMIP 1142.76 ; method: absorbance ; result: 1000 µg/mL
O=C(Nc1cc(C(F)(F)F)cc(C(F)(F)F)c1)Nc1cc(C(F)(F)F)cc(C(F)(F)F)c1 ; endpoint: MIC ; organism: Escherichia coli ; strain or isolate: ES142 ; result: >300 µM
Cc1cc(CCCOc2c(C)cc(-c3noc(C(F)(F)F)n3)cc2C)on1 ; endpoint: EC50 ; cells: OHIO HELA-I ; organism: Rhinovirus ; strain or isolate: Isolate 14 ; method: cytopathic effect / visual reading ; result: 0.11 µg/mL
CCc1ccc(-c2noc(-c3ccccc3O)n2)cc1 ; endpoint: MIC50 ; cells: Human foreskin fibroblasts ; organism: Toxoplasma gondii ; result: >0.25 µM
Nc1nc2c(ncn2CCC(CO)CO)c(=O)[nH]1 ; endpoint: EC50 ; cells: HEL ; organism: Varicella zoster virus ; strain or isolate: Clinical isolate VZV-5 ; method: cytopathic effect ; result: 2.41 µM
O=C(Nc1cccc(C2=NCCN2)c1)Nc1cccc(C2=NCCN2)c1 ; endpoint: MIC ; organism: Escherichia coli ; strain or isolate: ES142 ; result: 86 µM
Cn1cc(C(=O)NCc2ccc(Cl)cc2)c(=O)c2cc(CN3CCOCC3)ccc21 ; endpoint: inhibition ; cells: HFF ; organism: Varicella zoster virus ; strain or isolate: DE varicella isolate ; method: plaque count ; dose: 1.8 µM ; result: 90%
CCCC(CCC)C(NC(C)=O)C1C(N=C(N)N)CC(C(=O)O)C1O ; endpoint: EC50 ; cells: MDCK ; organism: Influenza A virus ; strain or isolate: Influenza A/Virginia/2/88R (H3N2) ; result: 0.03 µM
O=C(NNC(=O)Nc1ccccc1C(F)(F)F)Nc1cc(C(F)(F)F)cc(C(F)(F)F)c1 ; endpoint: MIC ; organism: Escherichia coli ; strain or isolate: ES142 ; result: >422 µM
CN[C@H]1CC[C@@H](c2ccc(Cl)c(Cl)c2)c2ccccc21 ; endpoint: MFC ; organism: Cryptococcus neoformans ; strain or isolate: UA 491 ; method: broth dilution ; result: 8 µg/mL
CCc1ccc(C(=O)NS(=O)(=O)c2ccccc2OC)cc1 ; endpoint: MIC50 ; cells: Human foreskin fibroblasts ; organism: Toxoplasma gondii ; result: >0.25 µM
O=c1[nH]c(=O)n([C@H]2C[C@H](O)[C@@H](CO)O2)cc1I ; endpoint: inhibition ; cells: HELF ; organism: Varicella zoster virus ; strain or isolate: HIRAI ; method: plaque count ; dose: 0.1 µg/mL ; result: 0%
O=C(CCC(=O)Nc1cc(C(F)(F)F)cc(C(F)(F)F)c1)Nc1cc(C(F)(F)F)cc(C(F)(F)F)c1 ; endpoint: MIC ; organism: Escherichia coli ; strain or isolate: ES142 ; result: >300 µM
CCC(CC)[C@H](NC(C)=O)[C@@H]1C[C@@H](C(=O)O)C[C@H]1N=C(N)N ; endpoint: EC50 ; cells: MDCK ; organism: Influenza A virus ; strain or isolate: Influenza A/Shandong/09/93 (H3N2) ; result: 0.18 µM
O=C(NNC(=O)Nc1cc(C(F)(F)F)cc(C(F)(F)F)c1)Nc1ccccc1 ; endpoint: MIC ; organism: Klebsiella pneumoniae ; strain or isolate: KL21 ; result: >200 µM
C=CCc1ccc(O)c(OC)c1 ; endpoint: MIC90 ; organism: Candida tropicalis ; strain or isolate: 3189 ; method: turbidity ; result: 490 µg/mL
Cc1occc1C(=O)NC(=O)c1ccccc1O ; endpoint: MIC90 ; cells: Human foreskin fibroblasts ; organism: Toxoplasma gondii ; result: >10 µM
Nc1cnn([C@@H]2O[C@H](CO)[C@@H](O)[C@H]2O)c(=O)n1 ; endpoint: inhibition ; cells: HEP-2 ; organism: Adenovirus ; strain or isolate: TYPE 5 ; dose: 125 µg/mL ; result: 100%
N#Cc1ccc(C(=O)NC(=O)c2ccccc2O)cc1 ; endpoint: MIC50 ; cells: Human foreskin fibroblasts ; organism: Toxoplasma gondii ; result: >1 µM
O=C(O)CP(=O)(O)O ; endpoint: EC50 ; cells: HEL ; organism: Varicella zoster virus ; strain or isolate: Oka penciclovir-resistant/B ; method: cytopathic effect ; result: 123.5 µM
O=c1[nH]c(=O)n([C@H]2C[C@H](O)[C@@H](CO)O2)cc1Br ; endpoint: inhibition ; cells: ME ; organism: Murine polyoma virus ; method: hybridisation ; dose: 0.012 µg/mL ; result: 0%
CCc1ccc(NC(=O)CC(=O)Nc2ccccc2O)cc1 ; endpoint: MIC50 ; cells: Human foreskin fibroblasts ; organism: Toxoplasma gondii ; result: >0.125 µM
Nc1ncnc2c1ncn2C[C@@H](CO)OCP(=O)(O)O ; endpoint: EC50 ; cells: HEL ; organism: Varicella zoster virus ; strain or isolate: Oka penciclovir-resistant/A ; method: cytopathic effect ; result: 0.011 µM
O=c1[nH]c(=O)n([C@H]2C[C@H](O)[C@@H](CO)O2)cc1/C=C/Br ; endpoint: inhibition ; cells: HELF ; organism: Varicella zoster virus ; strain or isolate: YS ; method: plaque count ; dose: 0.001 µg/mL ; result: 8%
CCCC(CCC)C(NC(C)=O)C1CC(C(=O)O)CC1N=C(N)N ; endpoint: EC50 ; cells: MDCK ; organism: Influenza A virus ; strain or isolate: H1N1 A/TEXAS/36/91 ; result: 0.11 µM
Cc1cn([C@@H]2O[C@H](CO)[C@@H](O)[C@@H]2F)c(=O)nc1N ; endpoint: inhibition ; cells: HELF ; organism: Varicella zoster virus ; strain or isolate: KANNO ; method: plaque count ; dose: 0.001 µg/mL ; result: 0%
NC(=O)NNC(=O)Nc1cc(C(F)(F)F)cc(C(F)(F)F)c1 ; endpoint: MIC ; organism: Klebsiella pneumoniae ; strain or isolate: KL21 ; result: 223 µM
CCc1ccc(NC(=O)NC(=O)c2ccccc2O)cc1 ; endpoint: MIC50 ; cells: Human foreskin fibroblasts ; organism: Toxoplasma gondii ; result: >0.25 µM
Nc1nc(N)c2ncn(CCOCP(=O)(O)O)c2n1 ; endpoint: EC50 ; cells: HEL ; organism: Varicella zoster virus ; strain or isolate: Oka PMEDAP-resistant ; method: cytopathic effect ; result: 24.5 µM
C=Cc1cn([C@@H]2O[C@H](CO)[C@@H](O)[C@@H]2O)c(=O)[nH]c1=O ; endpoint: inhibition ; cells: HELF ; organism: Varicella zoster virus ; strain or isolate: KANNO ; method: plaque count ; dose: 1 µg/mL ; result: 100%
O=C(O)P(=O)(O)O ; endpoint: EC50 ; cells: HEL ; organism: Varicella zoster virus ; strain or isolate: Clinical isolate VZV-25 ; method: cytopathic effect ; result: 81 µM
N#Cc1cc([N+](=O)[O-])ccc1Oc1ccc(Cl)c(Cl)c1 ; endpoint: inhibition ; cells: VERO ; organism: Coxsackie virus ; strain or isolate: TYPE B4 ; method: plaque count ; dose: 2 µg/mL ; result: 93.2%
CCc1cn([C@@H]2O[C@H](CO)[C@@H](O)[C@@H]2O)c(=O)[nH]c1=O ; endpoint: inhibition ; cells: HELF ; organism: Varicella zoster virus ; strain or isolate: HIRAI ; method: plaque count ; dose: 10 µg/mL ; result: 0%
O=C(CC(=O)Nc1cccc(C(F)(F)F)c1)Nc1cccc(C(F)(F)F)c1 ; endpoint: MIC ; organism: Klebsiella pneumoniae ; strain or isolate: KL21 ; result: >300 µM
O=C(NC(=O)c1ccccc1O)c1cccc(CCl)c1 ; endpoint: MIC90 ; cells: Human foreskin fibroblasts ; organism: Toxoplasma gondii ; result: >1 µM

The first 2 rows once more:

CCCCCCCCOC(=O)[C@]1(O)C[C@@H](O)[C@@H](O)[C@H](OC(=O)/C=C/c2ccc(O)c(O)c2)C1 ; endpoint: MIC80 ; organism: Aspergillus parasiticus ; strain or isolate: UMIP 1142.76 ; method: absorbance ; result: 1000 µg/mL
O=C(Nc1cc(C(F)(F)F)cc(C(F)(F)F)c1)Nc1cc(C(F)(F)F)cc(C(F)(F)F)c1 ; endpoint: MIC ; organism: Escherichia coli ; strain or isolate: ES142 ; result: >300 µM

Neighbouring rows are from separate reports. MIC50, MIC90 and the like: level of inhibition, or share of isolates inhibited. Percent inhibition refers to the dose given; in toxicity tests it is the harm to the cells.